In ChEMBL document CHEMBL4364245 (Eur J Med Chem, 2019):
pIC50: −log10 of the molar value.

The chains behind the UniProt entries cited, without tags or fusion partners.
UniProt P03471, whole entry, looked up: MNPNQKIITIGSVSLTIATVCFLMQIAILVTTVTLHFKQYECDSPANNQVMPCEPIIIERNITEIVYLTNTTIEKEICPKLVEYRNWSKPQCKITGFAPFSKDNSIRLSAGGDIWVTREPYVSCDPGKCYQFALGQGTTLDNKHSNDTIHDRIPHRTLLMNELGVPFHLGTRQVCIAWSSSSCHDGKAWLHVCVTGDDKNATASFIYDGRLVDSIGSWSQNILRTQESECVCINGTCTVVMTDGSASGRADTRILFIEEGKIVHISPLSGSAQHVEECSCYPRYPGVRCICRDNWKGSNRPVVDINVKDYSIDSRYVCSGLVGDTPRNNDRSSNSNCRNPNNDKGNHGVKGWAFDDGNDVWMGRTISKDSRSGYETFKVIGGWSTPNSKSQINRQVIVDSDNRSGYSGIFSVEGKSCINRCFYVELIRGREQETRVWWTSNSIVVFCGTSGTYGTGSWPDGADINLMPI

Molecular target: Neuraminidase (Influenza A virus (A/Memphis/1/1971(H3N2)), UniProt P03471)

| Compound | pIC50 |
| --- | --- |
| CCC(CC)O[C@@H]1C=C(C(=O)NCc2ccc(Cl)cc2)C[C@H](NCc2ccc(Sc3ccccc3)cc2)[C@H]1NC(C)=O | < 4.00 |
| CCC(CC)O[C@@H]1C=C(C(=O)NCc2ccc(Cl)cc2)C[C@H](NCc2ccc(-c3ccccc3)cc2)[C@H]1NC(C)=O | < 4.00 |
| CCC(CC)O[C@@H]1C=C(C(=O)NCc2ccc(C(=O)O)cc2)C[C@H](NCc2ccc(-c3ccccc3)cc2)[C@H]1NC(C)=O | < 4.00 |
| CCC(CC)O[C@@H]1C=C(C(=O)NCc2ccc(F)cc2)C[C@H](NCc2ccc(SC)cc2)[C@H]1NC(C)=O | < 4.00 |
| CCC(CC)O[C@@H]1C=C(C(=O)NCc2ccc(F)cc2)C[C@H](NCc2ccc(Sc3ccccc3)cc2)[C@H]1NC(C)=O | < 4.00 |
| CCC(CC)O[C@@H]1C=C(C(=O)NCc2ccc(Cl)cc2)C[C@H](NCc2ccc(SC)cc2)[C@H]1NC(C)=O | < 4.00 |
| CCC(CC)O[C@@H]1C=C(C(=O)NCc2ccc(F)cc2)C[C@H](NCc2ccc(N(CC)CC)cc2)[C@H]1NC(C)=O | < 4.00 |
| CCC(CC)O[C@@H]1C=C(C(=O)N[C@@H](C(=O)O)C(C)C)C[C@H](NCc2ccc(-c3ccccc3)cc2)[C@H]1NC(C)=O | < 4.00 |
| CCC(CC)O[C@@H]1C=C(C(=O)NCc2ccc(C(=O)O)cc2)C[C@H](NCc2ccc(SC)cc2)[C@H]1NC(C)=O | < 4.00 |
| CCC(CC)O[C@@H]1C=C(C(=O)NCc2ccc(Cl)cc2)C[C@H](NCc2ccc(N(CC)CC)cc2)[C@H]1NC(C)=O | < 4.00 |
| CCC(CC)O[C@@H]1C=C(C(=O)N[C@@H](C(=O)O)C(C)C)C[C@H](NCc2ccc(SC)cc2)[C@H]1NC(C)=O | < 4.00 |
| CCC(CC)O[C@@H]1C=C(C(=O)N[C@@H](C(=O)O)C(C)C)C[C@H](NCc2ccc(N(CC)CC)cc2)[C@H]1NC(C)=O | < 4.00 |
| CCC(CC)O[C@@H]1C=C(C(=O)NCc2ccc(F)cc2)C[C@H](NCc2ccc(-c3ccccc3)cc2)[C@H]1NC(C)=O | < 4.00 |
